These results are taken from patent publication US20120101098A1, “3,28-DISUBSTITUTED BETULINIC ACID DERIVATIVES AS ANTI-HIV AGENTS” (priority 2009, published 2012).

Where “and” joins values, the source holds several entries; their conditions need not be identical. Equal entries are not always repeated.

What all share (format): cell-based
One data set relates to HIV-1NL4-3. Kind of data set: HIV-1NL4-3 replication inhibition assay in MT-4 lymphocytes (p24 antigen ELISA). The note with it: TI = CC50/EC50; HIV-1NL4-3, MT-4 cells. From the text:
HIV-1NL4-3 Replication Inhibition Assay in MT-4 Lymphocytes. A previously described HIV-1 infectivity assay was used.^28,33 A 96-well microtiter plate was used to set up the HIV-1NL4-3 replication screening assay. NL4-3 variants at a multiplicity of infection (MOI) of 0.01 were used to infect MT4 cells. Culture supernatants were collected on day 4 post-infection for the p24 antigen capture using an ELISA kit from ZeptoMetrix Corporation (Buffalo, N.Y.).
For orientation: In an ELISA, binding on a coated surface is turned into a signal by an enzyme label.

Another data set relates to HIV-1IIIB. Kind of data set: HIV-1IIIB replication inhibition assay in MT-2 lymphocytes (p24 antigen ELISA). To be noted: TI = CC50/EC50, MT-2 cells.
For another data set, the system named is HIV-1. Put plainly: Example 2 anti-HIV bioassay of C-28 ethylene glycol bevirimat analogs. The note with it: Example 2 compounds (Scheme B).

As to `C=C(C)[C@@H]1CC[C@]2(C(=O)NCCCCCCCC(=O)N[C@@H](CC(C)C)[C@H](O)CC(=O)O)CC[C@]3(C)[C@H](CC[C@@H]4[C@@]5(C)CC[C@H](O)C(C)(C)[C@@H]5CC[C@]43C)[C@@H]12` [Compound 3b, IC9564, reference compound], the TI in the data set with HIV-1NL4-3 is over 112.4.
`C=C(COCCN1CCOCC1)[C@@H]1CC[C@]2(C(=O)N[C@@H](CC(C)C)C(=O)O)CC[C@]3(C)[C@H](CC[C@@H]4[C@@]5(C)CC[C@H](O)C(C)(C)[C@@H]5CC[C@]43C)[C@@H]12` [Compound 19, N-[3β-Hydroxy-30-(2′-morpholinoethoxy)-lup-20(29)-en-28-oyl]-leucine] gave a TI in the data set with HIV-1IIIB of 1.4.
Regarding `C=C(C)[C@@H]1CC[C@]2(C(=O)N[C@@H](CC(C)C)C(=O)O)CC[C@]3(C)[C@H](CC[C@@H]4[C@@]5(C)CC[C@H](NC(=O)CC(C)(C)C(=O)O)C(C)(C)[C@@H]5CC[C@]43C)[C@@H]12` [Compound 36, N′-[3β-(3′,3′-Dimethylsuccinyl)-lup-20(29)-en-28-oyl]-leucine], in the data set on HIV-1IIIB, the TI worked out at 2.7.
The compound `C=C(COCCc1ccc(Cl)cc1)[C@@H]1CC[C@]2(C(=O)N[C@@H](CC(C)C)C(=O)O)CC[C@]3(C)[C@H](CC[C@@H]4[C@@]5(C)CC[C@H](O)C(C)(C)[C@@H]5CC[C@]43C)[C@@H]12` [Compound 17, N-[3β-Hydroxy-30-(4′-chlorophenethoxy)-lup-20(29)-en-28-oyl]-leucine] came in with a TI in the data set with HIV-1IIIB of 1.2.
For `C=C(C)[C@@H]1CC[C@]2(C(=O)N3CCC(CCCC(=O)NCCN4CCOCC4)CC3)CC[C@]3(C)[C@H](CC[C@@H]4[C@@]5(C)CC[C@H](OC(=O)CC(C)(C)C(=O)O)C(C)(C)[C@@H]5CC[C@]43C)[C@@H]12` [Compound 47, N′-[N-[3β-O-(3′,3′-Dimethylsuccinyl)-lup-20(29)-en-28-oyl]-4-piperidine-butanoyl]-2-aminoethylmorpholine], the TI with HIV-1IIIB was 2,473; in the data set with HIV-1NL4-3, 283.9.
In the data set with HIV-1IIIB, `C=C(CO)[C@@H]1CC[C@]2(C(=O)NCCCCCCCC(=O)O)CC[C@]3(C)[C@H](CC[C@@H]4[C@@]5(C)CC[C@H](O)C(C)(C)[C@@H]5CC[C@]43C)[C@@H]12` [Compound 29, N-[3β,30-Dihydroxy-lup-20(29)-en-28-oyl]-8-aminooctanoic acid] displayed a TI of 2.8.
Consider `C=C(C)[C@@H]1CC[C@]2(C(=O)NCCCCCCCNC(C)=O)CC[C@]3(C)[C@H](CC[C@@H]4[C@@]5(C)CC[C@H](O)C(C)(C)[C@@H]5CC[C@]43C)[C@@H]12` [Compound 4, A43-D, reference compound], for which the TI in the data set on HIV-1NL4-3 is > 100 and >150.
Regarding `C=C(C)[C@@H]1CC[C@]2(C(=O)O)CC[C@]3(C)[C@H](CC[C@@H]4[C@@]5(C)CC[C@H](OC(=O)CC(C)(C)C(=O)O)C(C)(C)[C@@H]5CC[C@]43C)[C@@H]12` [Compound 2, bevirimat, reference compound], in the data set on HIV-1IIIB, the TI is > 3.6×10^3 and 3,636.
As for `C=C(COCCN1CCOCC1)[C@@H]1CC[C@]2(C(=O)NCCCCCCCC(=O)O)CC[C@]3(C)[C@H](CC[C@@H]4[C@@]5(C)CC[C@H](O)C(C)(C)[C@@H]5CC[C@]43C)[C@@H]12` [Compound 20, N-[3β-Hydroxy-30-(2′-morpholinoethoxy)-lup-20(29)-en-28-oyl]-8-aminooctanoic acid], the TI in the data set on HIV-1IIIB was 13.8; in the data set on HIV-1, 72.9.
For `C=C(C)[C@@H]1CC[C@]2(C(=O)N3CCC(CCCC(=O)O)CC3)CC[C@]3(C)[C@H](CC[C@@H]4[C@@]5(C)CC[C@H](OC(=O)CC(C)(C)C(=O)O)C(C)(C)[C@@H]5CC[C@]43C)[C@@H]12` [Compound 39, N-[3β-O-(3′,3′-Dimethylsuccinyl)-lup-20(29)-en-28-oyl]-4-piperidine butyric acid], in the data set with HIV-1IIIB, the TI is 1.4×10^3 and 1,389.
Take `C=C(COCCN1CCOCC1)[C@@H]1CC[C@]2(C(=O)NCCCCCCCC(=O)NC)CC[C@]3(C)[C@H](CC[C@@H]4[C@@]5(C)CC[C@H](O)C(C)(C)[C@@H]5CC[C@]43C)[C@@H]12` [Compound 21]: the TI in the data set with HIV-1IIIB was 250; in the data set with HIV-1NL4-3, 250 and >138; in the data set on HIV-1, 261.7.
In turn, `C=C(C)[C@@H]1CC[C@]2(C(=O)N3CCC(CCCC(=O)O)CC3)CC[C@]3(C)[C@H](CC[C@@H]4[C@@]5(C)CC[C@H](OC(=O)CCC(C)(C)C(=O)O)C(C)(C)[C@@H]5CC[C@]43C)[C@@H]12` [Compound 40, N-[3β-O-(4′,4′-Dimethylglutaryl)-lup-20(29)-en-28-oyl]-4-piperidine butyric acid] came in with a TI in the data set on HIV-1IIIB of 145.
`C=C(CBr)[C@@H]1CC[C@]2(C(=O)NC(CC(C)C)C(=O)O)CC[C@]3(C)[C@H](CC[C@@H]4[C@@]5(C)CC[C@H](OC(=O)CC(C)(C)C(=O)O)C(C)(C)[C@@H]5CC[C@]43C)[C@@H]12` (stereo partly drawn) [Compound 30, N-[3β-O-(3′,3′-Dimethylsuccinyl)-30-bromo-lup-20(29)-en-28-oyl]-leucine]: in the data set with HIV-1IIIB, the TI is 3.0×10^3 and 3,022.
In the case of `C=C(C)[C@@H]1CC[C@]2(C(=O)N3CCC(CCCC(=O)NCCCN4CCOCC4)CC3)CC[C@]3(C)[C@H](CC[C@@H]4[C@@]5(C)CC[C@H](OC(=O)CC(C)(C)C(=O)O)C(C)(C)[C@@H]5CC[C@]43C)[C@@H]12` [Compound 48, N′-[N-[3β-O-(3′,3′-Dimethylsuccinyl)-lup-20(29)-en-28-oyl]-4-piperidine-butanoyl]-3-aminopropylmorpholine], the TI in the data set on HIV-1IIIB is recorded as 3,087; in the data set with HIV-1NL4-3, 245.7.
Turning to `C=C(C)[C@@H]1CC[C@]2(C(=O)N3CCC(CCCC(=O)N4CCOCC4)CC3)CC[C@]3(C)[C@H](CC[C@@H]4[C@@]5(C)CC[C@H](OC(=O)CC(C)(C)C(=O)O)C(C)(C)[C@@H]5CC[C@]43C)[C@@H]12` [Compound 46, N′-[N-[3β-O-(3′,3′-Dimethylsuccinyl)-lup-20(29)-en-28-oyl]-4-piperidine-butanoyl]-morpholine], the TI with HIV-1IIIB was 1,748; in the data set on HIV-1NL4-3 it was 121.4.
Regarding `C=C(C)[C@@H]1CC[C@]2(C(=O)N3CCC(CCCC(=O)NC)CC3)CC[C@]3(C)[C@H](CC[C@@H]4[C@@]5(C)CC[C@H](OC(=O)CC(C)(C)C(=O)O)C(C)(C)[C@@H]5CC[C@]43C)[C@@H]12` [Compound 45], the TI was 497 in the data set with HIV-1IIIB and over 41.7 in the data set on HIV-1NL4-3.
In turn, `C=C(C)[C@@H]1CC[C@]2(C(=O)NCCCCCCCC(=O)O)CC[C@]3(C)[C@H](CC[C@@H]4[C@@]5(C)CC[C@H](O)C(C)(C)[C@@H]5CC[C@]43C)[C@@H]12` [Compound 23, N-[3β-Hydroxy-lup-20(29)-en-28-oyl]-8-aminooctanoic acid] yielded a TI in the data set on HIV-1IIIB of 10.1.
`C=C(C)[C@@H]1CC[C@]2(C(=O)N3CCC(CCCC(=O)O)CC3)CC[C@]3(C)[C@H](CC[C@@H]4[C@@]5(C)CC[C@H](O)C(C)(C)[C@@H]5CC[C@]43C)[C@@H]12` [Compound 38, N-[3β-Hydroxy-lup-20(29)-en-28-oyl]-4-piperidine butyric acid] returned a TI in the data set with HIV-1IIIB of 1.9.
The same measure, in the same setting: next, `C=C(CBr)[C@@H]1CC[C@]2(C(=O)NCCCCCCCC(=O)O)CC[C@]3(C)[C@H](CC[C@@H]4[C@@]5(C)CC[C@H](O)C(C)(C)[C@@H]5CC[C@]43C)[C@@H]12` [Compound 25, N-[3β-Hydroxy-30-bromo-lup-20(29)-en-28-oyl]-8-aminooctanoic acid]: 16.1.
